Compound potency records, mixed from different reports. Data source: NIAID ChemDB in PubChem.

Common to all: tests in culture; agent: Herpes simplex virus 2; cell line: VERO; measure: EC50

ECn: concentration that inhibits the pathogen or its effect by n%. An empty or dashed field is not shown. a–b is a range or a potency band. Neighbouring rows are from separate reports.

compound	strain or isolate	read by	result
Cc1cn([C@@H]2O[C@H](CO)[C@@H](O)[C@@H]2F)c(=O)[nH]c1=O	K979	cytopathic effect	<0.3 µg/mL
CCCCCCCCCCCCCCCCCC(=O)OCC(CO[C@@H]1O[C@H](CO)[C@@H](O)[C@H](O)[C@H]1O)OC(=O)CCCCCCCCCCCCCCCCC	186	plaque count	>50 µg/mL
CC(C)(C)[Si](C)(C)OC[C@H]1O[C@@H](n2ccc(=O)[nH]c2=O)[C@H](O[Si](C)(C)C(C)(C)C)[C@@]12O[C@H]2C(=O)NN		plaque count	30 µM
COC(=O)c1cccn2cc(-c3ccccc3)cc12	186	plaque count	>100 µM
Nc1ccn([C@@H]2O[C@H](CO)[C@@H](O)[C@@H]2O)c(=O)n1	MS-M1	plaque count	0.1 µM
OC[C@H]1OC(c2c(-c3ccccc3)cc3c(Cl)cc(C(F)(F)F)cn23)[C@H](O)[C@@H]1O	186	plaque count	>100 µM
CCCn1c(C)c(C(N)=O)c(=O)c2ccc(-c3ccncc3)cc21		plaque count	>50 µg/mL
CC#Cc1cn([C@@H]2O[C@H](COP(=O)(Oc3ccccc3)Oc3ccc([N+](=O)[O-])cc3)[C@@H](O)[C@@H]2O)c(=O)[nH]c1=O	SC16	plaque count	>100 µM
CCCCCCCCCCCCCCCCCCCCCC(=O)OCC(CO[C@@H]1O[C@H](CO)[C@H](O)[C@H](O)[C@H]1O)OC(=O)CCCCCCCCCCCCC	186	plaque count	>50 µg/mL
N#Cc1ccc(-c2cc3ccccn3c2)cc1	186	plaque count	>100 µM
Nc1nc2c(ncn2[C@H]2C=C[C@@H](CO)CC2)c(=O)[nH]1		cytopathic effect	0.1–1 µM
CC(=O)c1c(O)c2c(c(C(=O)CC(C)C)c1O)OC(C(C)(C)O)C2		cytopathic effect	10.4 µM
CC(=O)c1c(-c2ccc(C#N)cc2)cc2ccccn12	186	plaque count	40 µM
Nc1nc2c(ncn2COC(CO)CO)c(=O)[nH]1	K979	cytopathic effect	<0.3 µg/mL
CCCCCCCC/C=C\CCCCCCCC(=O)OC(COC(=O)CCCCCCCCCCCCCCCCCCCCC)CO[C@@H]1O[C@H](CO)[C@@H](O)[C@H](O)[C@H]1O	186	plaque count	>50 µg/mL
O=C(O)P(=O)(O)O	G-FIAU-C1	plaque count	19 µM
CC(C)=CCc1ccc(O)c(=O)cc1C(C)C	Clinical isolate	plaque count	0.22 µM
NC(=O)c1cn(-c2ccc(F)cc2)c2cc(-c3cc[n+]([O-])cc3)ccc2c1=O	Curtis	plaque count	>12.5 µg/mL
[N-]=[N+]=Nc1c(-c2ccccc2)c(-c2ccccc2)n(COCCO)c1-c1ccccc1		plaque count	>65 µM
CC(C)(C)[Si](C)(C)OC[C@H]1O[C@@H](n2ccc(=O)[nH]c2=O)[C@H](O[Si](C)(C)C(C)(C)C)C1(O)[C@H](N=[N+]=[N-])C(N)=O		plaque count	>3.6 µM
CCOC(=O)c1c([N+](=O)[O-])c(-c2ccccc2)n(COCCOC(C)=O)c1C		plaque count	>169 µM
COc1ccc2nc3n[nH]c(C)c3c(SCc3ccco3)c2c1		plaque count	1.5 µg/mL
COCc1cn([C@H]2C[C@H](O)[C@@H](CO)O2)c(=O)nc1N	X-265	plaque count	130 µM
Nc1nc2c(ncn2C[C@]2(CO)C[C@H]2CO)c(=O)[nH]1		cytopathic effect	0.1–1 µM
Nc1nc2c(ncn2C[C@H]2C[C@H]2[C@H](O)CO)c(=O)[nH]1			>50 µM
COC(=O)/C=C1/[C@@H](O[Si](C)(C)C(C)(C)C)[C@H](n2cc(C)c(=O)n(C)c2=O)O[C@@H]1CO[Si](C)(C)C(C)(C)C		plaque count	>100 µM
Nc1nc2c(ncn2COC(CO)CO)c(=O)[nH]1	MS	plaque count	1.8 µM
Nc1nc2c(ncn2COCCO)c(=O)[nH]1			0.31 µM
Nc1ccn([C@H]2O[C@@H](CO)[C@H](O)[C@H]2F)c(=O)n1	G-FIAU-C1	plaque count	2.8 µM
CC(=O)NC(CCc1ccc(Cl)c(Cl)c1)c1cccc(O)c(=O)c1	Clinical isolate	plaque count	1.07 µM
O=C(O[C@@H]1[C@@H]2C(=O)c3cc(O)c(O)c(O)c3-c3c(cc(O)c(O)c3O)C(=O)OC[C@H]2OC(O)[C@@H]1O)c1cc(O)c(O)c(O)c1		XTT	4.75 µg/mL
Nc1ncnc2c1ncn2[C@@H]1C[C@H](CO)[C@@H](O)[C@@H]1O	G-FIAU-C1	plaque count	39 µM
CCCCOC(=O)c1ccc2cc(-c3ccccc3)cn2c1	186	plaque count	>100 µM
CCOc1ccc(-c2c3cc(O)c(=O)cc-3oc3cc(O)c(O)cc23)cc1	Clinical isolate	plaque count	3.93 µM
Cn1cc(C(=O)NCc2ccc(Cl)cc2)c(=O)c2cc(/C=C\CO)cc(F)c21	186	plaque count	2 µM
Cc1cn(N2C[C@H](CO)[C@H]2CO)c(=O)[nH]c1=O		plaque count	>10 µg/mL
COC(=O)c1ccc2cc(-c3ccccc3)cn2c1	186	plaque count	>100 µM
CC#Cc1cn([C@@H]2O[C@H](COP(=O)(N[C@@H](C)C(=O)OC)Oc3ccccc3)[C@@H](O)[C@@H]2O)c(=O)[nH]c1=O	SC16	plaque count	>100 µM
Nc1nc2c(ncn2CC[C@H](O)CO)c(=O)[nH]1	B4327	plaque count	53 µM
O=C(OC1COC(=O)c2cc(O)c(O)c(O)c2-c2c(cc(O)c(O)c2O)C(=O)OC1C1OC(=O)c2cc(O)c(O)c(O)c2-c2c(O)c(O)c(O)c3c2C(=O)OC1C3O)c1cc(O)c(O)c(O)c1		plaque count	1.5 µM
Nc1nc2c(ncn2CC[C@@H](O)CO)c(=O)[nH]1	72	plaque count	4 µM
Nc1nc2c(ncn2CCCCO)c(=O)[nH]1	72	plaque count	14 µM
Nc1nc(=O)n([C@@H]2O[C@H](CO)[C@@H](O)[C@@H]2F)cc1I	G	plaque count	0.9 µM
O=[N+]([O-])c1cc(-c2ccccc2)n(COCCO)c1-c1ccccc1		plaque count	>46 µM
Cc1cn(C[C@H]2C[C@H]2CO)c(=O)[nH]c1=O			>50 µM
CC#Cc1cn([C@@H]2O[C@H](COP(=O)(NCCCCCCCCCCCC)Oc3ccccc3)[C@@H](O)[C@@H]2O)c(=O)[nH]c1=O	SC16	plaque count	10–100 µM
Nc1nc2c(ncn2CC(CO)CCO)c(=O)[nH]1	91075	plaque count	5 µM
c1csc(-c2cc3ccccn3c2)c1	186	plaque count	>100 µM
Nc1nc2c(ncn2COCCO)c(=O)[nH]1	72	plaque count	0.3 µM
Nc1nc2c(ncn2C[C@H]2C[C@H]2CO)c(=O)[nH]1			>50 µM
Cn1cc(C(=O)NCc2ccc(Cl)cc2)c(=O)c2cc(CN3CCOCC3)ccc21	MS	plaque count	2.5 µM
CC#Cc1cn([C@@H]2O[C@H](COP(=O)(OCC)Oc3ccccc3)[C@@H](O)[C@@H]2O)c(=O)[nH]c1=O	SC16	plaque count	>100 µM
OCCOCn1c(-c2ccccc2)c(Br)c(Br)c1-c1ccccc1		plaque count	>51 µM
CC#Cc1cn([C@@H]2O[C@H](COP(=O)(O)OCCCCCCCCCCCCCCCC)[C@@H](O)[C@@H]2O)c(=O)[nH]c1=O	SC16	plaque count	100 µM
O=C(O[C@@H]1[C@@H](c2c(O)cc(O)c3c2O[C@H](c2cc(O)c(O)c(O)c2)[C@H](OC(=O)c2cc(O)c(O)c(O)c2)C3)c2c(O)cc(O)cc2O[C@@H]1c1cc(O)c(O)c(O)c1)c1cc(O)c(O)c(O)c1	196	plaque count	0.4 µM
Cc1cn([C@@H]2O[C@H](CO)[C@@H](O)[C@@H]2F)c(=O)[nH]c1=O	G-FIAU-C1	plaque count	9.2 µM
Nc1nc2c(ncn2COCCO)c(=O)[nH]1	G	plaque count	0.4–1 µg/mL
Nc1nc2c(ncn2[C@@H]2CO[C@H](CO)[C@@H](O)C2)c(=O)[nH]1		cytopathic effect	0.1–1 µM
O=c1[nH]c(=O)n([C@H]2C[C@H](O)[C@@H](CO)O2)cc1I	K979	cytopathic effect	<1 µg/mL
CC/C=C/C/C=C/C/C=C/CCCCCCCC(=O)OCC(CO[C@@H]1O[C@H](CO)[C@H](O)[C@H](O)[C@H]1O)OC(=O)CCCCCCC/C=C\C/C=C\CCCCC	186	plaque count	<50 µg/mL
Cc1nc(N(C)C(=O)Cc2ccc(-c3ccccc3F)cc2)sc1S(N)(=O)=O	G		0.01 µM
CC(C)(C)[Si](C)(C)OC[C@H]1O[C@@H](n2ccc(=O)[nH]c2=O)[C@H](O[Si](C)(C)C(C)(C)C)[C@]12O[C@@H]2CO		plaque count	20 µM
O=c1[nH]c(=O)n([C@H]2C[C@H](O)[C@@H](CO)O2)cc1CCCl	K979	cytopathic effect	<30 µg/mL
CC#Cc1cn([C@@H]2O[C@H](COP(=O)(O)OCCCCCCCCCCCC)[C@@H](O)[C@@H]2O)c(=O)[nH]c1=O	SC16	plaque count	>100 µM
NC(=O)c1cn(-c2ccc(Br)cc2)c2cc(-c3ccncc3)ccc2c1=O	Curtis	plaque count	0.4 µg/mL
Nc1nc2c(ncn2COCOCP(=O)(O)O)c(=O)[nH]1		cytopathic effect	11 µg/mL

The first 7 rows once more:

{"compound": "Cc1cn([C@@H]2O[C@H](CO)[C@@H](O)[C@@H]2F)c(=O)[nH]c1=O", "strain or isolate": "K979", "read by": "cytopathic effect", "result": "<0.3 µg/mL"}
{"compound": "CCCCCCCCCCCCCCCCCC(=O)OCC(CO[C@@H]1O[C@H](CO)[C@@H](O)[C@H](O)[C@H]1O)OC(=O)CCCCCCCCCCCCCCCCC", "strain or isolate": "186", "read by": "plaque count", "result": ">50 µg/mL"}
{"compound": "CC(C)(C)[Si](C)(C)OC[C@H]1O[C@@H](n2ccc(=O)[nH]c2=O)[C@H](O[Si](C)(C)C(C)(C)C)[C@@]12O[C@H]2C(=O)NN", "read by": "plaque count", "result": "30 µM"}
{"compound": "COC(=O)c1cccn2cc(-c3ccccc3)cc12", "strain or isolate": "186", "read by": "plaque count", "result": ">100 µM"}
{"compound": "Nc1ccn([C@@H]2O[C@H](CO)[C@@H](O)[C@@H]2O)c(=O)n1", "strain or isolate": "MS-M1", "read by": "plaque count", "result": "0.1 µM"}
{"compound": "OC[C@H]1OC(c2c(-c3ccccc3)cc3c(Cl)cc(C(F)(F)F)cn23)[C@H](O)[C@@H]1O", "strain or isolate": "186", "read by": "plaque count", "result": ">100 µM"}
{"compound": "CCCn1c(C)c(C(N)=O)c(=O)c2ccc(-c3ccncc3)cc21", "read by": "plaque count", "result": ">50 µg/mL"}